Pooled drug test results. Numbers come from NIAID ChemDB, via PubChem.

Shared fields: whole-cell or culture tests; organism: Herpes simplex virus 2; read by: plaque count; read-out: EC50

Blank or dashed fields: not listed here. ECn: concentration that inhibits the pathogen or its effect by n%. Two numbers with a dash give a range or band. Neighbouring rows are from separate reports.

Cc1cccc(C)c1N(CC(=O)Nc1ccc(-c2ncon2)cc1)C(C)C1CCS(=O)(=O)CC1 ; cells: Vero Cells + HEF cells ; strain or isolate: Genital isolate ; value: 0.012 µM
Nc1ncnc2c1ncn2C[C@@H](CO)OCP(=O)(O)O ; cells: WI-38 ; strain or isolate: 186 ; value: 2 µM
CCCC(=O)OCC(COC(=O)CCC)OCn1cnc2c(=O)[nH]c(N)nc21 ; cells: HFF ; value: 100 µg/mL
Nc1ncnc2c1ncn2[C@H]1C[C@]12C[C@@H]2CO ; cells: VERO ; value: >50 µM
CC#Cc1cn([C@@H]2O[C@H](COP(=O)(NCCCCCCCCCCCC)Oc3ccccc3)[C@@H](O)[C@@H]2O)c(=O)[nH]c1=O ; cells: VERO ; strain or isolate: SC16 ; value: 10–100 µM
Nc1nc2c(ncn2COC2COP(=O)(O)OC2)c(=O)[nH]1 ; cells: MRC-5 ; strain or isolate: Curtis ; value: 1–2 µM
C[C@@H](c1ccccc1)N(CC(=O)Nc1ccc(-c2csc(N)n2)cc1)C(=O)c1ccncc1 ; cells: BHK-21/C13 ; strain or isolate: HG-52 ; value: 0.11 µM
CCOC(=O)c1c(Br)c(-c2ccccc2)n(COCCO)c1-c1ccccc1 ; cells: VERO ; value: >64 µM
C[C@H]1[C@H](O)[C@@H](CO)O[C@H]1n1cc(I)c(N)nc1=O ; cells: MRC-5 ; strain or isolate: G ; value: >100 µg/mL
CCc1cn([C@@H]2S[C@H](CO)[C@@H](O)[C@@H]2F)c(=O)[nH]c1=O ; cells: CCRF-HSB-2 ; strain or isolate: MS ; value: 0.25 µM
CCOC(=O)c1c(Cl)c(-c2ccccc2)n(COCCO)c1C ; cells: VERO ; value: 100 µM
Nc1nc2c(ncn2[C@@H]2C[C@H](CO)[C@H]2O)c(=O)[nH]1 ; value: 0.4 µM
Nc1ncnc2c1ncn2[C@H]1C[C@]12C[C@H]2CO ; cells: VERO ; value: >50 µM
CC#Cc1cn([C@@H]2O[C@H](COP(=O)(N[C@H](C(=O)OC)C(C)C)Oc3ccccc3)[C@@H](O)[C@@H]2O)c(=O)[nH]c1=O ; cells: VERO ; strain or isolate: SC16 ; value: >100 µM
Nc1nc2c(ncn2[C@@H]2O[C@H](COP(=O)(O)CC(=O)O)[C@@H](O)[C@H]2O)c(=O)[nH]1 ; cells: VERO ; strain or isolate: 3345 ; value: >2000 µM
O=c1[nH]c(=O)n([C@@H]2O[C@H](CO)[C@@H](O)[C@@H]2O)cc1/C=C/Cl ; cells: CCRF-HSB-2 ; strain or isolate: MS ; value: >382 µM
O=C(O)CP(=O)(O)O ; cells: VERO ; strain or isolate: 3345 ; value: 40 µM
Nc1nc2c(ncn2C[C@H]2CS[C@H](P(=O)(O)O)O2)c(=O)[nH]1 ; cells: VERO ; strain or isolate: 186 ; value: >100 µg/mL
Nc1nc2c(ncn2[C@H]2C[C@]23C[C@H]3CO)c(=O)[nH]1 ; cells: VERO ; value: >50 µM
Nc1nc2c(ncn2[C@@H]2C[C@H](CO)[C@H]2CO)c(=O)[nH]1 ; cells: WI-38 ; strain or isolate: 186/2'NDG^R ; value: 1–2 µM
CC#Cc1cn([C@@H]2O[C@H](COP(=O)(O)OCCCCCCCCCCCCCCCC)[C@@H](O)[C@@H]2O)c(=O)[nH]c1=O ; cells: VERO ; strain or isolate: SC16 ; value: 100 µM
Cc1cn([C@H]2C[C@@H](N=[N+]=[N-])[C@@H](CO)O2)c(=O)[nH]c1=O ; strain or isolate: 333 ; value: >100 µM
CCOP(=O)(OCC)C1=NOC(n2cc(C)c(=O)[nH]c2=O)C1 ; cells: VERO ; value: >400 µM
Cc1cn([C@@H]2O[C@H](CO)[C@@H](O)[C@@H]2O)c(=O)[nH]c1=O ; cells: CCRF-HSB-2 ; strain or isolate: MS ; value: 1.74 µM
Nc1c(-c2ccccc2)c(-c2ccccc2)n(COCCO)c1-c1ccccc1 ; cells: VERO ; value: >42 µM
CCOP(=O)(OCC)C1=NOC(n2cc(F)c(=O)[nH]c2=O)C1 ; cells: VERO ; value: >100 µM
Nc1ncnc2c1ncn2[C@H]1C[C@@]12C[C@H]2CO ; cells: VERO ; value: >50 µM
O=C(O)P(=O)(O)O ; cells: GMK ; strain or isolate: US ; value: 222.3 µM
Nc1nc2c(ncn2COCCO)c(=O)[nH]1 ; cells: HFF ; value: 1.8 µg/mL
O=c1[nH]c(=O)n([C@H]2C[C@H](O)[C@@H](CO)O2)cc1/C=C/Br ; cells: CCRF-HSV-B ; strain or isolate: MS ; value: 62 µg/mL
O=C(NCc1ccc(Cl)cc1)c1c[nH]c2ccc(CCCO)cc2c1=O ; strain or isolate: MS ; value: 15 µM
COC(=O)C(Cc1c[nH]c2ccccc12)NP(=O)(O)OCC1C/C1=C/n1cnc2c(N)ncnc21 ; cells: VERO ; value: 40 µM
CCOC(=O)c1c([N+](=O)[O-])c(-c2ccccc2)n(COCCO)c1C ; cells: VERO ; value: >300 µM
C[C@H]1[C@H](O)[C@@H](CO)O[C@H]1n1cc(I)c(=O)[nH]c1=O ; cells: MRC-5 ; strain or isolate: G ; value: >61.27 µg/mL
CC(=O)OCCOCn1c(-c2ccccc2)c(N)c(C#N)c1-c1ccccc1 ; cells: VERO ; value: >300 µM
CC#Cc1cn([C@@H]2O[C@H](COP(=O)(Oc3ccccc3)Oc3ccc([N+](=O)[O-])cc3)[C@@H](O)[C@@H]2O)c(=O)[nH]c1=O ; cells: VERO ; strain or isolate: SC16 ; value: >100 µM
Nc1ncnc2c1ncn2[C@@H]1O[C@H](COP(=O)(O)CC(=O)O)[C@@H](O)[C@@H]1O ; cells: VERO ; strain or isolate: 3345 ; value: >2000 µM
OCCOCn1c(-c2ccccc2)c(Br)c(Br)c1-c1ccccc1 ; cells: VERO ; value: >51 µM
O=c1[nH]c(=O)n([C@@H]2S[C@H](CO)[C@@H](O)[C@@H]2F)cc1I ; cells: CCRF-HSB-2 ; strain or isolate: MS ; value: 0.47 µM
O=C(NCc1ccc(Cl)cc1)c1cn2c3c(cc(CN4CCOCC4)cc3c1=O)OC(c1cccnc1)C2 ; cells: HFF ; strain or isolate: SR (WILD TYPE) ; value: 10.8 µM
Nc1nc2c(ncn2CC2CSC(P(=O)(O)O)O2)c(=O)[nH]1 ; cells: VERO ; strain or isolate: 186 ; value: 99 µg/mL
Cn1cc(C(=O)NCc2ccc(Cl)cc2)c(=O)c2cc(CN3CCOCC3)ccc21 ; cells: HFF ; strain or isolate: 12247 (ACV-resistant) ; value: 2.8 µM
CC(=O)OCCOCn1c(-c2ccccc2)c(Br)c(Br)c1-c1ccccc1 ; cells: VERO ; value: >23 µM

Again, the opening 4 rows:

smiles	cells	strain or isolate	value
Cc1cccc(C)c1N(CC(=O)Nc1ccc(-c2ncon2)cc1)C(C)C1CCS(=O)(=O)CC1	Vero Cells + HEF cells	Genital isolate	0.012 µM
Nc1ncnc2c1ncn2C[C@@H](CO)OCP(=O)(O)O	WI-38	186	2 µM
CCCC(=O)OCC(COC(=O)CCC)OCn1cnc2c(=O)[nH]c(N)nc21	HFF		100 µg/mL
Nc1ncnc2c1ncn2[C@H]1C[C@]12C[C@@H]2CO	VERO		>50 µM